A mixed list of measured activities; the numbers were collected in NIAID ChemDB.

Common to all: cytotoxicity tests; cell line: MT-4; read by: MTT; read-out: CC50

Lines come from different laboratories, so protocols vary.

compound	value
Cc1ccc(CN=C2C=C(Cc3ccc4ccccc4c3)NS(=O)(=O)N2)cc1	144 µM
C#Cc1ccc(Nc2nccc(Oc3c(C)cc(-c4cn(CC(=O)Nc5ccc(F)cc5)nn4)cc3C)n2)cc1	1.41 µM
Nc1ncnc2c1ncn2[C@@H]1OC[C@H](/C=C/P(=O)(O)O)[C@H]1F	95 µM
Fc1ccc2nc(/N=C/c3cccc(Cl)c3)sc2c1	>100 µM
c1cn(CCCNCc2ccc(CNCCCn3ccnc3)cc2)cn1	168.8 µM
CCN(CC)C(=O)N1CCN(C(=O)N(C)CCN2CCCC2)CC1	>125 µg/mL
Cc1ccnc2c1NC(=O)c1cccnc1N2C1CC1	>15.9 µM
CC(C)(C)c1ccc(S(=O)(=O)N2CCC(NC(=O)c3cc(O)c(O)c(O)c3)CC2)cc1	131 µM
COc1ccccc1N1CCN(CCCN2C(=O)CCC(c3ccccc3)C2=O)CC1	>100 µM
Cc1cc(-c2ccc(C#N)cc2)cc(C)c1Oc1nc(Nc2ccc(C#N)cc2)nc2ccsc12	223.8 µM
CS(=O)(=O)N1CCC(NC(=O)c2cc(O)c(O)c(O)c2)CC1	42.4 µM
Cc1cc(C#N)cc(C)c1Oc1ccnc(NC2CCN(CC(=O)Nc3cc(Cl)cc(Cl)c3)CC2)n1	3.521 µM
CCOC(=O)c1cn(Cc2ccncc2)c(Sc2cc(Cl)cc(Cl)c2)c1C1CCCCC1	95.1 µM
O=S1(=O)N=C(Nc2ccc(F)c(F)c2)C=C(Cc2ccccc2)N1	250 µM
CC(C)(C)OC(=O)[C@@H]1CCCN1C[C@H](O)[C@H](Cc1ccccc1)NC(=O)[C@H](CC(N)=O)NC(=O)OCc1ccccc1	>233 µg/mL
Clc1cccc(/C=N/c2nccs2)c1	>100 µM
CC(C)Nc1cccnc1N1CCN(C(=O)c2cc3cc(NS(C)(=O)=O)ccc3[nH]2)CC1	>44 µM
O=C(CSc1nc2ncccc2n1-c1ccc(C2CC2)c2ccccc12)Nc1ccc(C(=O)O)cc1Cl	1.12 µM
N#Cc1ccc(Nc2nc(Oc3ccc(-c4ccc(C#N)cc4)cc3F)c3sccc3n2)cc1	>269.9 µM
O=C(CN1CCN(c2ccc(Cl)cc2)CC1)OC[C@@H]1CC[C@H](n2cnc3c(=O)[nH]cnc32)O1	>1000 µM
O=C(NC1CCN(S(=O)(=O)c2ccccc2)CC1)c1cc(O)c(O)c(O)c1	127.8 µM
c1cc(CNCCCN2CCCC2)ccc1CNCCCN1CCCC1	90.4 µM
N#Cc1ccc(Nc2nc(Oc3ccc(-c4ccc(C#N)cc4)c(Cl)c3)c3sccc3n2)cc1	>261 µM
CN(C)C(=O)N1CCN(C(=O)N2CCCC2)CC1	>125 µg/mL
COc1ccc(CSc2nc(Cc3c(Cl)cccc3Cl)c(C)c(=O)[nH]2)c(OC)c1	>55 µM
c1ccc(-c2cc(CN3CCCNCCNCCCNCC3)cc(CN3CCCNCCNCCCNCC3)n2)cc1	>250 µg/mL
Cc1cc(C)c(NC2=NS(=O)(=O)NC(Cc3ccccc3)=C2)c(C)c1	191 µM
CN1CCN(C(=O)N2CCN(C(=O)N(C)C)CC2)CC1	>125 µg/mL
COc1ccccc1C(=O)N1CCC(NC(=O)c2cc(O)c(O)c(O)c2)CC1	147.2 µM
Nc1ccn([C@@H]2O[C@H](CO)C[C@@H]2F)c(=O)n1	127 µg/mL
CN(C)C(=O)N1CCN(C(=O)N(C)CCN2CCCC2)CC1	125 µg/mL
C#Cc1ccc(Nc2nccc(Oc3c(C)cc(-c4cn(Cc5ccc(S(N)(=O)=O)cc5)nn4)cc3C)n2)cc1	81.64 µM
Cc1ccc(S(=O)(=O)N2CCC(NC(=O)c3cc(O)c(O)c(O)c3)CC2)cc1	66.1 µM
Nc1nc2c(ncn2[C@@H]2OC[C@H](/C=C/P(=O)(O)O)[C@H]2F)c(=O)[nH]1	98 µM
Cc1cc(C)c(S(=O)(=O)N2CCC(NC(=O)c3cc(O)c(O)c(O)c3)CC2)c(C)c1	19.9 µM
Cc1cn([C@H]2C[C@H](N=[N+]=[N-])[C@@H](CO)O2)c(=O)[nH]c1=O	>7.48 µM
Cc1cc(C#N)cc(C)c1Oc1ccnc(NC2CCN(CC(=O)Nc3ccc(Cl)cc3Cl)CC2)n1	1.751 µM
CC1CCCCN1CCCNCc1ccc(CNCCCN2CCOCC2)cc1	>62.1 µM
O=C(CN1CCN(Cc2ccccc2)CC1)OC[C@@H]1CC[C@H](n2cnc3c(=O)[nH]cnc32)O1	>1000 µM
CC(C)c1s/c(=N\S(=O)(=O)c2cccc([N+](=O)[O-])c2)n(C)c1Cl	24 µM
Cc1ccnc2c1NC(=O)c1cccnc1N2C1CC1	>7.5 µM
CCCCOC(=O)N1CCN(C(=O)N(CC)CC)CC1	58.4 µg/mL
COc1cc(-c2ccc(C#N)cc2)ccc1Oc1nc(Nc2ccc(C#N)cc2)nc2ccsc12	>263.1 µM
CC(C)c1c(C(=O)O)cn(Cc2ccncc2)c1Sc1cc(Cl)cc(Cl)c1	>200 µM
CC(C)c1s/c(=N\S(=O)(=O)c2cccc([N+](=O)[O-])c2)n(C)c1C#N	>25 µM
CNNC(=O)c1cn(Cc2ccncc2)c(Sc2ccccc2)c1C(C)C	>200 µM
CCOC(=O)c1ccc(NC(=O)CSc2nc3ncccc3n2-c2ccc(C3CC3)c3ccccc23)c(Cl)c1	3.14 µM
Cc1cc(C#N)cc(C)c1Oc1ccnc(NC2CCN(CC(=O)Nc3ccc(Br)cc3)CC2)n1	>1.475 µM
O=c1[nH]cnc2c1ncn2[C@H]1CC[C@@H](CO)O1	>1000 µM
O=c1[nH]cnc2c1ncn2C1CC[C@@H](CO)O1	≥529 µM
CNNC(=O)c1cn(Cc2ccncc2)c(Sc2cc(Cl)cc(Cl)c2)c1C(C)C	184 µM
CCOC(=O)c1cn(CC=C(C)C)cc1S(=O)(=O)c1cc(Cl)ccc1NCC=C(C)C	>200 µM
Cc1cc(C#N)cc(C)c1Oc1ccnc(NC2CCN(CC(=O)Nc3cccc([N+](=O)[O-])c3)CC2)n1	>0.379 µM
Cc1cs/c(=N\S(=O)(=O)c2cccc([N+](=O)[O-])c2)n1C	>25 µM
Cc1cn([C@H]2C=C[C@@H](CO)O2)c(=O)[nH]c1=O	30 µg/mL
Cc1cc(C#N)cc(C)c1Oc1ccnc(NC2CCN(CC(=O)Nc3c(Cl)cc(Cl)cc3Cl)CC2)n1	1.5 µM
CCOP(=O)(N[C@@H](C)C(=O)OC)OC[C@H]1O[C@@H](n2cc(C)c(=O)[nH]c2=O)C[C@@H]1N=[N+]=[N-]	>236 µg/mL
COc1ccccc1NC1=NS(=O)(=O)NC(Cc2cccc3ccccc23)=C1	161 µM
Cc1c(Cc2c(Cl)cccc2Cl)nc(SCc2ccc3c(c2)OCO3)[nH]c1=O	>57 µM
Cc1[nH]c2ccccc2c1CC(=O)N[C@@H](Cc1ccccc1)C(=O)N(C)c1ccccc1	>100 µg/mL
CCN(CC)C(=O)N1CCN(C(=O)N2CCCC2)CC1	>125 µg/mL
N#Cc1ccc(Nc2nc(Oc3ccc(-c4ccc(C#N)cc4)cc3C(F)(F)F)c3sccc3n2)cc1	>243.6 µM
COc1ccc(/C=N/c2nccs2)cc1	>100 µM
C#Cc1ccc(Nc2nccc(Oc3c(C)cc(-c4cn(CCC(=O)OC)nn4)cc3C)n2)cc1	23.76 µM
Cc1ccnc2c1NC(=O)c1cccnc1N2C1CC1	>15 µM
NC(=O)OCc1cn(Cc2ccncc2)c(Sc2cc(Cl)cc(Cl)c2)c1C1CC1	121.7 µM
O=C(Cc1ccc(CC(=O)NCCCN2CCOCC2)cc1)NCCCN1CCOCC1	>280 µM
Cc1ccnc2c1NC(=O)c1cccnc1N2C1CC1	>200 µM
Cc1c(Cc2c(Cl)cccc2Cl)nc(SCc2ccc([N+](=O)[O-])cc2)[nH]c1=O	>58 µM
CONC(=O)c1cn(Cc2ccncc2)c(Sc2ccccc2)c1C(C)C	>200 µM
CC1CCCCN1CCCNCc1ccc(CC(=O)NCCCN2CCCCC2C)cc1	>56.47 µM
CC(C)(C)C(=O)SCCOP(=O)(COCCn1cnc2c(N)ncnc21)OCCSC(=O)C(C)(C)C	>10 µM
C#Cc1ccc(Nc2nccc(Oc3c(C)cc(-c4cn(CCc5ccccc5)nn4)cc3C)n2)cc1	5.69 µM
O=C1Nc2ccc(Cl)cc2S(=O)(=O)c2cn(Cc3ccc(-c4ccccc4)cc3)cc21	4.6 µM
O=C1CCC(c2ccccc2)C(=O)N1CCCCN1CCN(c2ccccn2)CC1	>100 µM
O=C1Nc2ccc(Cl)cc2S(=O)(=O)c2cn(Cc3cccc4ccccc34)cc21	>200 µM
C#Cc1ccc(Nc2nccc(Oc3c(C)cc(-c4cn(CCCC(=O)OC)nn4)cc3C)n2)cc1	20.15 µM
O=S1(=O)N=C(Nc2ccc(F)cc2)C=C(Cc2cccc3ccccc23)N1	158 µM
CC(C)c1cn(C)/c(=N/S(=O)(=O)c2cccc([N+](=O)[O-])c2)s1	>25 µM
O=C1CCC(c2ccccc2)C(=O)N1CCCCN1CCN(c2ccccc2)CC1	74 µM
O=C(Cc1ccc(CNCCCN2CCCC2)cc1)NCCCN1CCOCC1	>62.1 µM
c1cc(CN2CCCNCCNCCCNCC2)sc1CN1CCCNCCNCCCNCC1	>500 µg/mL
O=C1CCC(c2ccccc2)C(=O)N1CCCCN1CCN(c2ccccc2O)CC1	>100 µM
O=C(O)C1=CC(=C(c2ccc(O)c(C(=O)O)c2)c2ccc(O)c(C(=O)O)c2)C=CC1=O	>250 µg/mL
O=S1(=O)N=C(Nc2ccc(Cl)cc2)C=C(Cc2cccc3ccccc23)N1	147 µM
CCN(CC)C(=O)N1CCN(C(=O)N(C)CCN2CCCCC2)CC1	>125 µg/mL
CCOC(=O)c1cn(C)cc1S(=O)(=O)c1ccccc1	>200 µM
O[C@H]1[C@H](O)[C@@H](O)CN2CC[C@H](O)[C@H]12	>250 µg/mL
COC(=O)[C@@H]1CCCN1P(=O)(OC[C@H]1O[C@@H](n2cc(C)c(=O)[nH]c2=O)CC1N=[N+]=[N-])Oc1ccccc1	165.6 µM
c1cc(CNCCCN2CCCCC2)ccc1CCNCCCN1CCCCC1	>62.4 µM
CCN1C(=O)c2cn(C)cc2S(=O)(=O)c2cc(Cl)ccc21	>200 µM
c1cc(CN2CCCNCCNCCCNCC2)cc(-c2cccc(CN3CCCNCCNCCCNCC3)c2)c1	>200 µg/mL
C#Cc1ccc(Nc2nccc(Oc3c(C)cc(-c4cn(Cc5ccc([N+](=O)[O-])cc5)nn4)cc3C)n2)cc1	160 µM
Clc1cccc(C=Nc2nsc3ccccc23)c1	9 µM
CCOC(=O)c1c[nH]cc1S(=O)(=O)c1cc(Cl)ccc1NCC=C(C)C	12 µM
O=S1(=O)N=C(Nc2ccccc2)C=C(Cc2cccc3ccccc23)N1	158 µM
Cc1ccnc2c1NC(=O)c1cccnc1N2C1CC1	>15 µM
c1cc(CN2CCCNCCNCCCNCC2)ccc1CN1CCCNCCNCCCNCC1	>1 µg/mL

The last 5 rows once more:

{"compound": "Clc1cccc(C=Nc2nsc3ccccc23)c1", "value": "9 µM"}
{"compound": "CCOC(=O)c1c[nH]cc1S(=O)(=O)c1cc(Cl)ccc1NCC=C(C)C", "value": "12 µM"}
{"compound": "O=S1(=O)N=C(Nc2ccccc2)C=C(Cc2cccc3ccccc23)N1", "value": "158 µM"}
{"compound": "Cc1ccnc2c1NC(=O)c1cccnc1N2C1CC1", "value": ">15 µM"}
{"compound": "c1cc(CN2CCCNCCNCCCNCC2)ccc1CN1CCCNCCNCCCNCC1", "value": ">1 µg/mL"}

CCn is the concentration with n% toxicity to the cells.